The values below come from PubChem BioAssay (NCI).

Some test systems named below: HS 578T breast; NCI-H322M lung; SN12C renal.
Holding throughout (assay): NCI anticancer screen, dose series, 48 h

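Step 1: Grow cells in 96-well plates. Step 2: Expose to compound for 48 hours at 5 concentrations. Step 3: Interpolate endpoints linearly; if unreached, use highest concentration. GI50 = concentration required for 50% inhibition of growth. Definition used: TGI = concentration required for complete inhibition of growth.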

`CC1=CC2O[C@@H]3C[C@H]4OC(=O)/C=C\C=C\C56OCCC7(OC7C(=O)OCC2(CC1)[C@]4(C)[C@]31CO1)C5OC(O)C6O` (stereo partly specified): the GI50 in the test with HS 578T breast was 1.69 nM; in the test on NCI-H322M lung it was 5.47 nM; in the test on SN12C renal it was 3.01 nM. Moreover, the TGI with HS 578T breast was 3460 nM; in the test with NCI-H322M lung, 316 nM; with SN12C renal it was 3420 nM.
